Reference: PMC12561106, “STOP Strategy to Inhibit P. falciparum and S. aureus Growth: Molecular Mechanism Studies on Purposely Designed Hybrids” (Antibiotics, 2025)

Test system: WS1 cells (human-derived fibroblasts)
Test: cell viability and proliferation assay (CCK-8/WST8)
Assay type: cell-based
Details: for SI, Vero/D10: selectivity index CC50 / IC50 P. falciparum D10; for SI, Vero/W2: selectivity index CC50 / IC50 P. falciparum W2; for SI, Vero/S. aureus: selectivity index CC50 / IC50 S. aureus ATCC 25923
Description: WS1 cells (ATCC CRL-1502) were selected as a model system to investigate the effect of PTZ-quinoline hybrid compounds on human-derived fibroblasts. Briefly, cells were cultured in DMEM-High glucose supplemented with 10% fetal bovine serum (FBS) (Carlo Erba Reagents, Milan, Italy), 100 U/mL penicillin, and 100 µg/mL streptomycin at 37 °C with 5% CO2. For experiments, cells were seeded into 96-well plates at 0.7 × 10^4 cells/well, and incubated at 37 °C for 24 h. […] Cell viability was assessed by a WST8-based assay according to the manufacturer’s instructions (CCK-8, Cell Counting Kit-8, Dojindo Molecular Technologies, Rockville, MD, USA). After 48 h of incubation, culture medium was removed from each well, the monolayer was washed with PBS, and 100 µL of fresh medium containing 10 µL of CCK-8 solution was added. Following a 2 h incubation at 37 °C, the OD450nm was read, and data were expressed as the percentage of cell viability relative to the untreated controls. The CC50 was obtained on the corresponding dose–response curves generated as previously reported for IC50 values. Experiments were carried out in triplicate in three biological replicates.

SMILES	SI, Vero/D10	SI, Vero/W2	SI, Vero/S. aureus
Clc1ccc2c(N3CCN(CCCN4c5ccccc5Sc5ccccc54)CC3)ccnc2c1 [Compound 1, 10-(3-(4-(7-chloroquinolin-4-yl)piperazin-1-yl)propyl)-10H-phenothiazine]	>39.7	>43.1	–
Clc1ccc2c(N3CCN(CCCCCN4c5ccccc5Sc5ccccc54)CC3)ccnc2c1 [Compound 3, 10-(5-(4-(7-chloroquinolin-4-yl)piperazin-1-yl)pentyl)-10H-phenothiazine]	>42.7	>101.0	–
Clc1ccc2c(NCCn3cc(CN4c5ccccc5Sc5ccccc54)nn3)ccnc2c1 [Compound 4a, N-(2-(4-((10H-phenothiazin-10-yl)methyl)-1H-1,2,3-triazol-1-yl)ethyl)-7-chloroquinolin-4-amine]	126.1	89.6	2.4
Clc1ccc2c(c1)N(Cc1cn(CCNc3ccnc4cc(Cl)ccc34)nn1)c1ccccc1S2 [Compound 4b, 7-chloro-N-(2-(4-((2-chloro-10H-phenothiazin-10-yl)methyl)-1H-1,2,3-triazol-1-yl)ethyl)quinolin-4-amine]	81.1	82.1	2.6
Clc1ccc2c(NCCCn3cc(CN4c5ccccc5Sc5ccccc54)nn3)ccnc2c1 [Compound 5a, N-(3-(4-((10H-phenothiazin-10-yl)methyl)-1H-1,2,3-triazol-1-yl)propyl)-7-chloroquinolin-4-amine]	40.3	67.7	1.8
Clc1ccc2c(c1)N(Cc1cn(CCCNc3ccnc4cc(Cl)ccc34)nn1)c1ccccc1S2 [Compound 5b, 7-chloro-N-(3-(4-((2-chloro-10H-phenothiazin-10-yl)methyl)-1H-1,2,3-triazol-1-yl)propyl)quinolin-4-amine]	151.6	163.9	4.4
Clc1ccc2c(NCCCCCn3cc(CN4c5ccccc5Sc5ccccc54)nn3)ccnc2c1 [Compound 6a, N-(5-(4-((10H-phenothiazin-10-yl)methyl)-1H-1,2,3-triazol-1-yl)pentyl)-7-chloroquinolin-4-amine]	148.1	128.6	–
Clc1ccc2c(c1)N(Cc1cn(CCCCCNc3ccnc4cc(Cl)ccc34)nn1)c1ccccc1S2 [Compound 6b, 7-chloro-N-(5-(4-((2-chloro-10H-phenothiazin-10-yl)methyl)-1H-1,2,3-triazol-1-yl)pentyl)quinolin-4-amine]	57.0	186.6	1.4
Clc1ccc2c(N3CCN(CCCn4cc(CN5c6ccccc6Sc6ccccc65)nn4)CC3)ccnc2c1 [Compound 8, 10-((1-(3-(4-(7-chloroquinolin-4-yl)piperazin-1-yl)propyl)-1H-1,2,3-triazol-4-yl)methyl)-10H-phenothiazine]	>7.9	>46.1	–
